# Experimental data published in PubChem BioAssay.
# The list shows a part of the results, in another mix than the full data. The source made the active and inactive calls.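 The calls were made as follows, unless noted: active = mean inhibition above the mean of solvent-only control wells plus 3 SD (cut at about 4% in these data); inactive = the rest.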
# Legend:
# [1] = growth loss of phage-infected E. coli expressing H. pylori AddAB, confirmation, AddAB inhibitor project, absorbance, E. coli V3065, T4 phage, triplicate (AID 488942;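 active = mean inhibition above a set limit taken from the earlier primary screen, cut at about 13% in these data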;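 also: higher means less bacterial growth since AddAB block lets phage replicate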); settings: OD, at 11.9 µM, stronger effect = higher value, T4 phage with gene 2 nonsense mutations
# [2] = growth loss of RecBCD+ E. coli with mutant T4 phage, counter-screen for AddAB inhibitor project, absorbance, V66 E. coli (AID 488955); settings: OD growth, at 11.9 µM, stronger effect = higher value;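 also: optical density read after an 18 h incubation at 37 °C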
# [3] = bacterial viability inhibition counter-screen, confirmation, counter-screen for AddAB inhibitor project, absorbance (AID 488956; in the data active = inhibition above about 25%); settings: absorbance (AddAB counterscreen), at 11.9 µM, stronger effect = higher value
# [4] = growth loss of phage-infected RecBCD+ E. coli, confirmation, RecBCD inhibitor project, absorbance, E. coli V66, T4 gene 2 phage (AID 651982;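 active = mean inhibition over triplicates exceeding the hit threshold derived in the original primary screen, cut at about 11% in these data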); settings: E. coli V66 + T4 2- phage, growth OD; at 11.9 µM; stronger effect = higher value
# [5] = E. coli viability inhibition, counter-screen for RecBCD inhibitor project, absorbance, high throughput (AID 651983; in the data active = inhibition above about 20%;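 also: E. coli strain V66 grown with compound alone and no phage infection; 0% = bacteria with DMSO vehicle only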); settings: absorbance (OD) growth, at 11.9 µM, stronger effect = higher value
# [6] = growth loss of phage-infected AddAB-carrying E. coli, confirmation, counter-screen for RecBCD inhibitor project, absorbance, E. coli V3065, T4 phage (AID 651984;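 active = mean inhibition above the solvent-only control wells' mean plus 3 SD, cut at about 22% in these data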;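 also: higher means less bacterial growth from phage killing when AddAB is blocked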); settings: E. coli expressing H. pylori AddAB + T4 phage, OD growth; at 11.9 µM; stronger effect = higher value; gene 2 mutant T4, recBCD-deleted host
# [7] = GAL4-VP16 reporter modulators, confirmation, counter-screen for NR2E3 agonist project, cell-based, luminescence, CHO-S, high throughput (AID 624379;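 active = mean inhibition above a cutoff equal to the average over all tested compounds plus one standard deviation, cut at about 70% in these data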;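 also: luciferase from a UAS reporter driven by GAL4-VP16 transactivation; 0% = DMSO with VP16-transfected cells and 100% = DMSO with cells lacking VP16; higher means less reporter light so more repression of VP16 activity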); settings: CHO-S GAL4-VP16 luciferase reporter, at 3.98 µM, stronger effect = higher value
# [8] = Gal4-VP16 luciferase reporter inhibitors, counter-screen for COUP-TFII antagonist project, cell-based, luminescence, HEK293 (AID 687007; in the data active = inhibition above about 13%); settings: at 8.5 µM, stronger effect = higher value
# [9] = test system: HIV-1 integrase (multimerization); test: HIV-1 IN multimer formation enhancers, counter-screen for LEDGF/p75 integration inhibitor project, biochemical, TR-FRET (AID 1053131; in the data active = activation above about 8.9%); settings: TR-FRET HIV-1 integrase multimerization, at 7.7 µM, stronger effect = higher value
compound,measurement,setting,value
O=[N+]([O-])c1cccc2n[nH]nc12,inhibition,[1],active: 99.8%
same,inhibition,[2],active: 13.1%
same,inhibition,[3],active: 50.4%
same,inhibition,[4],active: 11.5%
same,inhibition,[5],inactive: 13%
same,inhibition,[6],active: 84.5%
O=P(Nc1nccs1)(c1ccccc1)c1nc2ccccc2s1 (stereo not drawn),inhibition,[1],inactive: 4.87%
same,inhibition,[2],inactive: -2.64%
same,inhibition,[3],inactive: -1.86%
O=C(O)c1ccccc1[As](=O)(O)O,inhibition,[4],active: 65.8%
same,inhibition,[5],active: 65.4%
same,inhibition,[6],active: 27.3%
C[N+]1=C2C=CC=CC=C2SC12C([N+](=O)[O-])=CC([N+](=O)[O-])=C[C-]2[N+](=O)[O-] (stereo not drawn),inhibition,[7],inactive: -7.84%
same,inhibition,[8],active: 91.5%
O=[N+]([O-])c1cc([N+](=O)[O-])c(-c2ccn[nH]2)s1,inhibition,[1],active: 94.4%
same,inhibition,[2],active: 18.4%
same,inhibition,[3],active: 40.2%
CC(=O)NC(SC(=S)N(CC(C)C)CC(C)C)C(Cl)(Cl)Cl (stereo not drawn),inhibition,[1],active: 33.1%
same,inhibition,[2],active: 14%
same,inhibition,[3],active: 28.1%
Nc1cccc2ccc([As](=O)(O)O)cc12,activation,[9],active: 61.6%
Nc1cccc2c([As](=O)(O)O)cccc12,activation,[9],active: 102%
CC(=O)NC(SC(=S)N(C)C)C(Cl)(Cl)Cl (stereo not drawn),inhibition,[7],inactive: -17.4%
